## Potato spindle tuber viroid, loop 6: variant abundance in plants

From the data files of Wu et al. 2024, doi:10.1371/journal.ppat.1012142.

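Three N. benthamiana plants were inoculated with the whole mutant pool. Progeny were sequenced from the inoculated region (day 5), the margin of the inoculated leaf (day 10) and systemic leaves (day 12).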

PSTVd intermediate strain, loop 6: wild type UGACCGCGAG, pool pattern UNNNCGNNNG; upper and lower strand joined, each 5' to 3', the first 5 letters being the upper strand, closing pairs included.

Values are reads per thousand in the sample; higher means more abundant, 0 means not found.
Each value is the mean of three plants.
"Pool" is the share in the plasmid pool used as inoculum, on the same scale.
The inoculated region was read from the minus strand, the other sites from the plus strand.

- UCCACGACCG (pool 0.170): inoculated region 0.0715; leaf margin 0; systemic leaves 0
- UGCACGUGGG (pool 0.170): inoculated region 0.0896; leaf margin 0; systemic leaves 0
- UUCACGCCCG (pool 0.222): inoculated region 0.143; leaf margin 0; systemic leaves 0.00684
- UUACCGAUAG (pool 0.275): inoculated region 0.150; leaf margin 0.117; systemic leaves 0
- UGCACGUGCG (pool 0.261): inoculated region 0.119; leaf margin 0.00920; systemic leaves 0
- UACUCGAGGG (pool 0.196): inoculated region 0.106; leaf margin 0; systemic leaves 0
- UGACCGCCGG (pool 0.196): inoculated region 0.114; leaf margin 0.237; systemic leaves 0.0717
- UUACCGCCUG (pool 0.209): inoculated region 0.202; leaf margin 0.0339; systemic leaves 0
- UUCCCGCUAG (pool 0.118): inoculated region 0.114; leaf margin 0.0184; systemic leaves 0
- UUACCGCUGG (pool 0.118): inoculated region 0.0959; leaf margin 0.0353; systemic leaves 0
- UGUUCGACCG (pool 0.314): inoculated region 0.124; leaf margin 0.0247; systemic leaves 0
- UGGUCGACGG (pool 0.353): inoculated region 0.0784; leaf margin 0; systemic leaves 0.00684
- UGACAGUGGG (pool 0.0131): inoculated region 0.00599; leaf margin 0; systemic leaves 0
- UUAUCGAUCG (pool 0.379): inoculated region 0.0889; leaf margin 0; systemic leaves 0
- UAUCCUCGAG (pool 0.0131): inoculated region 0.00579; leaf margin 0; systemic leaves 0
- UUGCCGCUUG (pool 0.131): inoculated region 0.106; leaf margin 0.00920; systemic leaves 0
- UUACCGGAGG (pool 0.157): inoculated region 0.101; leaf margin 0.0155; systemic leaves 0
- UUAUCUCUGG (pool 0.0131): inoculated region 0; leaf margin 0; systemic leaves 0
- UCUCCGUCGG (pool 0.157): inoculated region 0.0949; leaf margin 0.0155; systemic leaves 0
- UUCCCGUGUG (pool 0.405): inoculated region 0.0952; leaf margin 0.0184; systemic leaves 0
- UCUACGCAAG (pool 0.131): inoculated region 0.132; leaf margin 0.120; systemic leaves 0
- UCUACGGUCG (pool 0.340): inoculated region 0.0951; leaf margin 0.00773; systemic leaves 0
- UAGGCGGCAG (pool 0.248): inoculated region 0.0824; leaf margin 0; systemic leaves 0
- UUGGCGAACG (pool 0.392): inoculated region 0.114; leaf margin 0; systemic leaves 0.00599

Extract of 2 entries:

sequence,pool,inoculated region,leaf margin,systemic leaves
UUACCGCUGG,0.118,0.0959,0.0353,0
UCUCCGUCGG,0.157,0.0949,0.0155,0

Sequences that differ at fixed positions probably stem from PCR or sequencing errors, and defective variants can be carried along by functional ones.
Samples held 36,220 to 57,551 reads, so the smallest values rest on one or two reads.
For reference, wild type rose from 20.7 per thousand in the pool to 195, 198, 203 (inoculated region), 629, 591, 734 (leaf margin) and 942, 870, 868 (systemic leaves).